## Genome-wide point mutation profile of HIV-1: integrase

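Random point mutant libraries of HIV-1 NL4-3, one for each of seven fragments, were passaged in CEM T lymphocytes. Sequencing gave the RC index: frequency after two rounds over frequency in the input plasmid.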

Protein: integrase of HIV-1 NL4-3, numbered from its first residue. The source prints no sequence; the chain below is taken from UniProt P12497, a closely related isolate, and fits the source at the 252 positions it covers.
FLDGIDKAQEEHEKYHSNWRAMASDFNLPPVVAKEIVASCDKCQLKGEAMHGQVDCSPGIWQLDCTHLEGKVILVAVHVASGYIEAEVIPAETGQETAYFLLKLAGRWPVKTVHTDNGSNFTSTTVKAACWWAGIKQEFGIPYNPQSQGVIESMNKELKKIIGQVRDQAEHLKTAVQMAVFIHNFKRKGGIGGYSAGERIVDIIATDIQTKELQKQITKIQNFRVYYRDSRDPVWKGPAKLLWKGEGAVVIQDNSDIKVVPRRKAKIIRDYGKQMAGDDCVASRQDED
Effects on overlapping genes or RNA elements are not listed.

A higher RC index is a better tolerated change; approximate classes are lethal up to 0.1, attenuated to 0.2, tolerated above. Substitutions are written as wild-type residue, site number, new residue. Input reads are the counts in the plasmid library. The authors read an index above 1 as above wild type (1.9% of all changes in the genome).

{"substitution": "G52V", "base": "G4384T", "input reads": "160", "replication capacity index": 0.137}
{"substitution": "Q53L", "base": "A4387T", "input reads": "364", "replication capacity index": 0.0549}
{"substitution": "V54L", "base": "G4389T", "input reads": "117", "replication capacity index": 0.0683}
{"substitution": "V54E", "base": "T4390A", "input reads": "261", "replication capacity index": 0.0459}
{"substitution": "D55N", "base": "G4392A", "input reads": "248", "replication capacity index": 0.845}
{"substitution": "D55H", "base": "G4392C", "input reads": "63", "replication capacity index": 0.0634}
{"substitution": "D55Y", "base": "G4392T", "input reads": "296", "replication capacity index": 0.169}
{"substitution": "D55G", "base": "A4393G", "input reads": "155", "replication capacity index": 0.0773}
{"substitution": "C56R", "base": "T4395C", "input reads": "369", "replication capacity index": 0.0866}
{"substitution": "C56S", "base": "G4396C", "input reads": "92", "replication capacity index": 0.0434}
{"substitution": "S57G", "base": "A4398G", "input reads": "239", "replication capacity index": 0.100}
{"substitution": "S57I", "base": "G4399T", "input reads": "372", "replication capacity index": 0.0912}
{"substitution": "G59R", "base": "G4404A", "input reads": "127", "replication capacity index": 0.535}
{"substitution": "G59R", "base": "G4404C", "input reads": "105", "replication capacity index": 0.0190}
{"substitution": "I60L", "base": "A4407C", "input reads": "53", "replication capacity index": 0.0377}
{"substitution": "I60V", "base": "A4407G", "input reads": "362", "replication capacity index": 0.0221}
{"substitution": "I60K", "base": "T4408A", "input reads": "264", "replication capacity index": 0.0303}
{"substitution": "I60T", "base": "T4408C", "input reads": "135", "replication capacity index": 0.118}
{"substitution": "W61R", "base": "T4410C", "input reads": "288", "replication capacity index": 0.0485}
{"substitution": "Q62L", "base": "A4414T", "input reads": "336", "replication capacity index": 0.0238}
{"substitution": "Q62H", "base": "G4415T", "input reads": "233", "replication capacity index": 0.0600}
{"substitution": "D64G", "base": "A4420G", "input reads": "203", "replication capacity index": 0.0393}
{"substitution": "D64E", "base": "T4421A", "input reads": "458", "replication capacity index": 0.0392}
{"substitution": "C65S", "base": "G4423C", "input reads": "156", "replication capacity index": 0.0896}
{"substitution": "T66A", "base": "A4425G", "input reads": "187", "replication capacity index": 0.139}
{"substitution": "T66S", "base": "A4425T", "input reads": "283", "replication capacity index": 0.120}
{"substitution": "T66K", "base": "C4426A", "input reads": "91", "replication capacity index": 0.132}
{"substitution": "H67Y", "base": "C4428T", "input reads": "481", "replication capacity index": 0.170}
{"substitution": "H67R", "base": "A4429G", "input reads": "219", "replication capacity index": 0.0274}
{"substitution": "H67L", "base": "A4429T", "input reads": "304", "replication capacity index": 0.236}
{"substitution": "H67Q", "base": "T4430A", "input reads": "271", "replication capacity index": 0.0368}
{"substitution": "L68I", "base": "T4431A", "input reads": "255", "replication capacity index": 0.125}
{"substitution": "E69K", "base": "G4434A", "input reads": "373", "replication capacity index": 0.798}
{"substitution": "E69D", "base": "A4436C", "input reads": "49", "replication capacity index": 0.0815}
{"substitution": "G70R", "base": "G4437A", "input reads": "235", "replication capacity index": 0.688}
{"substitution": "G70V", "base": "G4438T", "input reads": "124", "replication capacity index": 0.145}
{"substitution": "K71I", "base": "A4441T", "input reads": "335", "replication capacity index": 0.0298}
{"substitution": "V72I", "base": "G4443A", "input reads": "269", "replication capacity index": 0.275}
{"substitution": "V72D", "base": "T4444A", "input reads": "341", "replication capacity index": 0.0234}
{"substitution": "V72A", "base": "T4444C", "input reads": "270", "replication capacity index": 0.0666}
{"substitution": "I73V", "base": "A4446G", "input reads": "174", "replication capacity index": 0.0803}
{"substitution": "L74M", "base": "T4449A", "input reads": "646", "replication capacity index": 0.0247}
{"substitution": "L74V", "base": "T4449G", "input reads": "154", "replication capacity index": 0.0389}
{"substitution": "V75I", "base": "G4452A", "input reads": "490", "replication capacity index": 0.159}
{"substitution": "A76S", "base": "G4455T", "input reads": "326", "replication capacity index": 0.0367}
{"substitution": "V77I", "base": "G4458A", "input reads": "402", "replication capacity index": 0.0695}
{"substitution": "V77F", "base": "G4458T", "input reads": "194", "replication capacity index": 0.0720}
{"substitution": "V77G", "base": "T4459G", "input reads": "91", "replication capacity index": 0.0878}
{"substitution": "H78L", "base": "A4462T", "input reads": "236", "replication capacity index": 0.0592}
{"substitution": "V79E", "base": "T4465A", "input reads": "323", "replication capacity index": 0.0495}
{"substitution": "A80T", "base": "G4467A", "input reads": "460", "replication capacity index": 0.143}
{"substitution": "S81G", "base": "A4470G", "input reads": "443", "replication capacity index": 0.0406}
{"substitution": "S81I", "base": "G4471T", "input reads": "168", "replication capacity index": 0.0475}
{"substitution": "S81R", "base": "T4472A", "input reads": "310", "replication capacity index": 0.0193}
{"substitution": "Y83N", "base": "T4476A", "input reads": "207", "replication capacity index": 0.0386}
{"substitution": "Y83H", "base": "T4476C", "input reads": "189", "replication capacity index": 0.116}
{"substitution": "Y83F", "base": "A4477T", "input reads": "509", "replication capacity index": 0.0353}
{"substitution": "E85V", "base": "A4483T", "input reads": "273", "replication capacity index": 0.0219}
{"substitution": "A86S", "base": "G4485T", "input reads": "176", "replication capacity index": 0.0681}
{"substitution": "A86E", "base": "C4486A", "input reads": "55", "replication capacity index": 0.182}
{"substitution": "A86V", "base": "C4486T", "input reads": "397", "replication capacity index": 0.146}
{"substitution": "E87K", "base": "G4488A", "input reads": "231", "replication capacity index": 0.294}
{"substitution": "V88I", "base": "G4491A", "input reads": "268", "replication capacity index": 0.328}
{"substitution": "I89F", "base": "A4494T", "input reads": "292", "replication capacity index": 0.0547}

5 of these entries, quoted again:

substitution,base,input reads,replication capacity index
T66S,A4425T,283,0.120
Q53L,A4387T,364,0.0549
E69D,A4436C,49,0.0815
E85V,A4483T,273,0.0219
I60V,A4407G,362,0.0221

Clones carried about five changes per kilobase, which can drag down the index of neutral changes. Base changes are numbered along pNL4-3.

Reference: Al-Mawsawi et al. 2014, doi:10.1186/s12977-014-0124-6.